Experimental data as given in publication PMC6465249 (Cell Discovery, 2019).

Legend:
[1] = target: Hemagglutinin of H3N2 A/Aichi/2/1968 on virus-infected cells (Influenza A virus A/Aichi/2/1968 (H3N2), UniProt P03437, strain); experiment: immunostaining of cells or tissue
[2] = target: Hemagglutinin of H4N6 A/duck/Czech/1956 on virus-infected cells (Influenza A virus A/duck/Czech/1956 …, UniProt P19696, strain); experiment: immunostaining of cells or tissue

B1: AF4H1K1 IgG (antibody, V domains shown)
VH: QVQLVESGGGVVQPGTSLRLSCEASGFTSSAYAMHWVRQAPGKGLEWVAVITFDGGYQYYADSVKGRFTISRDISRNTLHLHMNSLRAEDTAVYYCARDPLTKLLPFDWVSGGYFDYWGQGTLVTVSS
VL: not shown
notes: also called huMAb AF4H1K1; copies: 2 + 2
- binding result [1]: binds
- binding result [2]: binds
